This data set deals with Akkermansia muciniphila ATCC BAA-835. As to the kind of experiment: Utilization of carbohydrates (API50CH kit), type strain. Details: key: +: growth; w: weak growth; −: no growth. As to conditions: type strain ATCC BAA-835. Type of data set: cell-based.

The text below walks through data of patent US20250057893A1, “PHARMACEUTICAL COMPOSITION FOR PREVENTING OR TREATING CANCER OR INFLAMMATORY DISEASE” (ENTEROBIOME INC., priority 2021, published 2025).

Some results come without the dose or concentration used.

For `CO[C@H]1O[C@H](CO)[C@@H](O)[C@H](O)[C@@H]1O` [Methyl-α D-mannopyranoside], the “Growth using the carbohydrate, ATCC BAA-835” value (“Growth using the carbohydrate” for short) is reported as “−”. The result for `C[C@H](O)[C@@H](O)[C@@H](O)[C@H](O)C=O` [L-Fucose] reads “+”.

With `OC[C@H]1O[C@@H](O[C@H]2[C@H](O)[C@@H](O)C(O)O[C@@H]2CO)[C@H](O)[C@@H](O)[C@H]1O` (stereo partly drawn) [D-Lactose (bovine origin), D-Lactose], the “Growth using the carbohydrate” value was “+”. As to `OC[C@H]1O[C@@](CO)(O[C@H]2O[C@H](CO)[C@@H](O)[C@H](O)[C@H]2O)[C@@H](O)[C@@H]1O` [D-Saccharose (sucrose), D-Saccharose], the “Growth using the carbohydrate” value is reported as “−”. Next, `OCc1ccccc1O[C@@H]1O[C@H](CO)[C@@H](O)[C@H](O)[C@H]1O` [Salicine]: “−”; `O=C[C@H](O)[C@H](O)[C@H](O)CO` [Ribose]: “+”; `CO[C@@H]1OC[C@@H](O)[C@H](O)[C@H]1O` [β-Methyl-xyloside]: “−”. Next, `OC[C@H](O)C(O)[C@@H](O)CO` [L-Arabitol]: “−”; D-Turanose: “−”; `OC[C@@H](O)[C@@H](O)[C@H](O)[C@H](O)CO` [D-Mannitol]: “−”.

As for `OC[C@H]1O[C@H](O[C@H]2[C@H](O)[C@@H](O)[C@H](O)O[C@@H]2CO)[C@H](O)[C@@H](O)[C@@H]1O` [D-Maltose], the “Growth using the carbohydrate” value is on record as “−”. Next, `OC[C@@H](O)[C@@H](O)CO` [Erythritol]: “−”; `CO[C@H]1O[C@H](CO)[C@@H](O)[C@H](O)[C@H]1O` [Methyl-α D-glucopyranoside]: “−”. Next, `OC[C@@H](O)[C@H](O)[C@@H](O)CO` [Xylitol]: “−”; `O=C[C@@H](O)[C@@H](O)[C@H](O)CO` [D-Lyxose]: “w”; `OCC(O)CO` [Glycerol]: “−”. Next, `O=C[C@@H](O)[C@H](O)[C@@H](O)CO` [L-Xylose]: “w”. `OC[C@H]1O[C@H](O[C@H]2O[C@H](CO)[C@@H](O)[C@H](O)[C@H]2O)[C@H](O)[C@@H](O)[C@@H]1O` [D-Trehalose]: the “Growth using the carbohydrate” value is reported as “−”. The result for `OC[C@@H](O)[C@@H](O)[C@@H](O)CO` [Adonitol] reads “−”. The result for `OC[C@H]1O[C@@H](Oc2ccc(O)cc2)[C@H](O)[C@@H](O)[C@@H]1O` [Arbutine] reads “−”; that for `OC[C@@H](O)C(O)[C@H](O)CO` [D-Arabitol], “−”; that for `OC[C@H]1O[C@H](OCC2O[C@@H](O)[C@H](O)[C@@H](O)[C@@H]2O)[C@H](O)[C@@H](O)[C@H]1O` (stereo partly drawn) [D-Melibiose], “−”. The result for `O=C(CO)[C@@H](O)[C@@H](O)[C@H](O)CO` [D-Tagatose] reads “−”; that for `O=C(CO)[C@@H](O)[C@H](O)[C@@H](O)CO` [L-Sorbose], “−”.

For the compound `O=C(CO)[C@@H](O)[C@H](O)[C@H](O)CO` [D-Fructose], the “Growth using the carbohydrate” value is given as “w”. The result for `O[C@H]1[C@H](O)[C@@H](O)[C@H](O)[C@@H](O)[C@H]1O` [Inositol] reads “−”. The result for `OC[C@H]1O[C@@](CO)(O[C@H]2O[C@H](CO)[C@@H](O)[C@H](O)[C@H]2O)[C@@H](O[C@H]2O[C@H](CO)[C@@H](O)[C@H](O)[C@H]2O)[C@@H]1O` [D-Melezitose] reads “−”.

With `OC[C@@H](O)[C@@H](O)[C@H](O)[C@@H](O)CO` [D-Sorbitol], the “Growth using the carbohydrate” value is “−”. As for `O=C[C@H](O)[C@@H](O)[C@@H](O)[C@H](O)CO` [D-Galactose], the “Growth using the carbohydrate” value is reported as “w”. Next, `C[C@H](O)[C@H](O)[C@@H](O)[C@@H](O)C=O` [L-Rhamnose]: “−”; `OC[C@H]1O[C@H](OC[C@H]2O[C@H](O[C@]3(CO)O[C@H](CO)[C@@H](O)[C@@H]3O)[C@H](O)[C@@H](O)[C@@H]2O)[C@H](O)[C@@H](O)[C@H]1O` [D-Raffinose]: “−”; `O=C[C@@H](O)[C@H](O)[C@H](O)CO` [D-Arabinose]: “w”. As for `OC[C@@H](O)[C@H](O)[C@H](O)[C@@H](O)CO` [Dulcitol], the “Growth using the carbohydrate” value was “−”. Next, `O=C(CO)[C@@H](O)[C@H](O)[C@@H](O)C(=O)[O-].[K+]` [Potassium 5-Ketogluconate]: “w”.

Regarding `O=C[C@@H](O)[C@@H](O)[C@H](O)[C@H](O)CO` [D-Mannose], the “Growth using the carbohydrate” value was “+”. Next, Glycogene: “−”.

As to `OC[C@H]1O[C@@H](O[C@H]2[C@H](O)[C@@H](O)[C@H](O)O[C@@H]2CO)[C@H](O)[C@@H](O)[C@@H]1O` [D-cellobiose], the “Growth using the carbohydrate” value was “−”.

Take `C[C@@H](O)[C@H](O)[C@H](O)[C@@H](O)C=O` [D-Fucose]: the “Growth using the carbohydrate” value is reported as “−”. Next, `O=C([O-])C(=O)C(O)C(O)C(O)CO.[K+]` (stereo not drawn) [Potassium 2-Ketogluconate]: “−”; `CC(=O)N[C@H]1C(O)O[C@H](CO)[C@@H](O)[C@@H]1O` (stereo partly drawn) [N-Acetylglucosamine]: “+”. Regarding `O=C[C@H](O)[C@@H](O)[C@@H](O)CO` [L-Arabinose], the “Growth using the carbohydrate” value is “w”. As for `O=C[C@H](O)[C@@H](O)[C@H](O)CO` [D-Xylose], the “Growth using the carbohydrate” value was “w”.
